Assay results as given in patent US20140010824A1 (priority 2012, published 2014).

System: Yptb(P^−) ΔmrtAB pmrtA^+B*- flag
Settings: Yptb(P^−) ΔmrtAB pmrtA^+B*- flag (point mutation in Walker A box of MrtB ATPase domain); overnight culture without shaking, 37° C.; average of six replicates

SMILES: Cn1c2cccc(=O)c-2nc2ccccc21 [pyocyanin]
- minimum inhibitory concentration (MIC): 2 µg/mL (≈ 9.51 µM)

Converted amounts (≈) assume the structure as drawn.
